Compound potency records, mixed from different reports. Data source: NIAID ChemDB in PubChem.

All rows: tests in culture; species: Mycobacterium tuberculosis

Percent inhibition refers to the dose given; in toxicity tests it is the harm to the cells.

structure | strain or isolate | read by | measure | dose | result
O=C(Nc1nc(-c2ccc(Br)s2)cs1)c1cc(/C=C/c2ccc([N+](=O)[O-])s2)nc2ccccc12 | H37Rv | fluorescence | MIC | - | 6.25 µg/mL
CC(C)C1=C(O)C2=C(C(=O)C1=O)[C@@]1(C)CCCC(C)(C)C1C=C2 | MDR | MTT | MIC100 | - | ≤12.5 µg/mL
O=C1CC(SC(=S)N2CCCCC2)C(=O)N1c1ccccc1 | H37Rv | BACTEC | MIC bound | - | ≤128 µg/mL
CCOC(=O)Nc1cc(N)c([N+](=O)[O-])c(NCCc2ccc(S(C)(=O)=O)cc2)c1 | H37Rv | - | inhibition | 12.5 µg/mL | 30%
CC1N=C(N)NC(c2c(Cl)cccc2Cl)=C1C(=O)Nc1ccc(S(=O)(=O)c2ccc(NC(=O)C3=C(c4c(Cl)cccc4Cl)NC(N)=NC3C)cc2)cc1 | H37Rv | - | MIC | - | 0.28 µM
Cc1ccc(NC(=O)c2cc(-c3cccs3)nc3ccc(C)cc23)cc1 | H37Rv | fluorescence | MIC | - | >6.25 µg/mL
COc1cc(C(O)(CCN(C)C)C(c2cc(-c3ccc(F)cc3)cnc2OC)c2cccc(OC)c2F)cc(OC)n1 | H37Rv | fluorescence | EC90 | - | 13.67 µM
CO[C@H]1/C=C/O[C@@]2(C)Oc3c(C)c(O)c4c(O)c(c(/C=N/N5CCNCC5)c(O)c4c3C2=O)NC(=O)/C(C)=C\C=C\[C@H](C)[C@H](O)[C@@H](C)[C@@H](O)[C@@H](C)[C@H](OC(C)=O)[C@@H]1C | H37Rv | - | MIC | - | 2 µg/mL
COC(=O)Nc1cc(Cl)cc(NC(=O)OC)n1 | H37Rv | - | EC50 | - | >12.5 µg/mL
CC1N=C(N)NC(c2ccc(N(C)C)cc2)=C1C(=O)Nc1ccc(S(=O)(=O)c2ccc(NC(=O)C3=C(c4ccc(N(C)C)cc4)NC(N)=NC3C)cc2)cc1 | INH resistant | - | MIC | - | 3.78 µM
O=C(N/N=C/c1ccc(Br)cc1)c1ccc(F)cc1 | H37Rv | - | MIC | - | >6.25 µg/mL
O=C(O)c1cc(/C=C\c2ccc([N+](=O)[O-])s2)nc2ccccc12 | H37Rv | fluorescence | MIC | - | 3.125 µg/mL
CCOC(=O)Nc1cc(N)c([N+](=O)[O-])c(NC/C(C)=N/NC(N)=O)n1 | H37Rv | - | EC50 | - | >12.5 µg/mL
Cc1ccc(NC(=O)c2cc(/C=C/c3ccc(-c4ccc([N+](=O)[O-])s4)s3)nc3ccc(C)cc23)cc1 | H37Rv | fluorescence | MIC | - | >6.25 µg/mL
COc1ccc(OC(=O)C2=C(C(C)C)C(=O)C3=C(C2=O)[C@@]2(C)CCCC(C)(C)[C@@H]2[C@H](O)[C@H]3OC(C)=O)cc1 | H37Rv | MTT | MIC100 | - | 3.12 µg/mL
COC(=O)C1=C(C)N(c2ccc(OC)cc2)C(C)=C(C(=O)OC)C1c1ccc(OC)cc1 | H37Rv | - | MIC | - | >6.25 µg/mL
CCOC(=O)Nc1cc(NCc2ccc(S(N)(=O)=O)cc2)c2ncc(C)nc2n1 | H37Rv | - | inhibition | 12.5 µg/mL | 0%
O=C(N/N=C/c1ccc([N+](=O)[O-])s1)c1ccc(Cl)cc1 | H37Rv | - | EC50 | - | <6.25 µg/mL
CC1N=C(N)NC(c2ccc([N+](=O)[O-])cc2)=C1C(=O)Nc1ccc(S(=O)(=O)c2ccc(NC(=O)C3=C(c4ccc([N+](=O)[O-])cc4)NC(N)=NC3C)cc2)cc1 | INH resistant | - | MIC | - | 3.72 µM
CO[C@H]1/C=C/O[C@@]2(C)Oc3c(C)c(O)c4c(O)c(c(/C=N/N5CCN(C)CC5)c(O)c4c3C2=O)NC(=O)/C(C)=C\C=C\[C@H](C)[C@H](O)[C@@H](C)[C@@H](O)[C@@H](C)[C@H](OC(C)=O)[C@@H]1C | 05001 (H37RV) | - | MIC | - | 3.2 µg/mL
CC[C@@H](CO)NCCN[C@@H](CC)CO | ATCC 27294 | resazurin | MIC | - | 14.4 µM
CCOC(=O)Nc1cc(N)c2[nH]c(C)nc2n1 | H37Rv | - | EC50 | - | >12.5 µg/mL
CC[C@@H](CO)NCCN[C@@H](CC)CO | 05001 (H37RV) | - | MIC | - | 1.6 µg/mL
O=C(N/N=C/c1cccs1)c1ccc(Br)cc1 | H37Rv | - | inhibition | 6.25 µg/mL | 0%
CN/N=C/c1c2c(O)c3c(O)c(C)c4c(c3c1O)C(=O)[C@@](C)(O/C=C/[C@H](OC)[C@@H](C)[C@@H](OC(C)=O)[C@H](C)[C@H](O)[C@H](C)[C@@H](O)[C@@H](C)/C=C/C=C(/C)C(=O)N2)O4 | H37Rv | - | MIC | - | 5 µg/mL
CCCCc1ccc(N2C(=S)c3cc(Cl)ccc3NC2(C)C)cc1 | My 331/88 | - | MIC | - | >125 µg/mL
CC(=O)O[C@H]1C2=C(C(=O)C(C(=O)Oc3ccc([N+](=O)[O-])cc3)=C(C(C)C)C2=O)[C@@]2(C)CCCC(C)(C)[C@@H]2[C@@H]1O | MDR | MTT | MIC100 | - | 3.12 µg/mL
COc1ccc(C2=C(C(=O)Nc3ccc(S(=O)(=O)c4ccc(NC(=O)C5=C(c6ccc(OC)c(OC)c6)NC(N)=NC5C)cc4)cc3)C(C)N=C(N)N2)cc1OC | INH resistant | - | MIC | - | 2.12 µM
CC1COc2c(N3CCN(C)CC3)c(F)cc3c(=O)c(C(=O)O)cn1c23 | 25 strains | - | MIC50 | - | 0.78 µg/mL
CC1=C(C(=O)Nc2cccc([N+](=O)[O-])c2)C(c2ccccc2Cl)C(C(=O)Nc2cccc([N+](=O)[O-])c2)=C(C)N1 | H37Rv | - | MIC | - | >6.25 µg/mL
CO[C@H]1/C=C/O[C@@]2(C)Oc3c(C)c(O)c4c(O)c(c(C=Nc5ccc(C)cc5)c(O)c4c3C2=O)NC(=O)/C(C)=C\C=C\[C@H](C)[C@H](O)[C@@H](C)[C@@H](O)[C@@H](C)[C@H](OC(C)=O)[C@@H]1C | H37Rv | - | MIC | - | >5 µg/mL
O=C(N=Nc1c(O)[nH]c2ccccc12)c1ccc(F)cc1 | H37Rv | - | inhibition | 6.25 µg/mL | 0%
CC1=C(C(=O)Nc2ccc(C)cc2C)C(c2ccccc2Cl)C(C(=O)Nc2ccc(C)cc2C)=C(C)N1 | H37Rv | - | MIC | - | >12.5 µg/mL
CO[C@H]1/C=C/O[C@@]2(C)Oc3c(C)c(O)c4c(O)c(c(/C=N/N5CCCC5)c(O)c4c3C2=O)NC(=O)/C(C)=C\C=C\[C@H](C)[C@H](O)[C@@H](C)[C@@H](O)[C@@H](C)[C@H](OC(C)=O)[C@@H]1C | H37Rv | - | MIC | - | 0.2 µg/mL
CCC(=O)O[C@@H]1C(OC(C)=O)C2=C(C(=O)C(=O)C(C(C)C)=C2O)[C@@]2(C)CCCC(C)(C)[C@H]12 | H37Rv | MTT | MIC100 | - | >25 µg/mL
CC1=C(C(=O)Nc2ccccc2F)C(c2ccccc2)C(C(=O)Nc2ccccc2[N+](=O)[O-])=C(C)N1 | H37Rv | - | MIC | - | >6.25 µg/mL
CCOC(=O)Nc1cc(NC(c2ccccc2)c2ccccc2)c2[nH]cnc2n1 | H37Rv | - | EC50 | - | >12.5 µg/mL
C=CC(C)(O)CCCC=C(C)C | H37Ra | absorbance | MIC | - | >256 µg/mL
CC1=C(C(=O)Nc2ccc(F)c(Cl)c2)C(c2ccccc2S(=O)(=O)[O-])C(C(=O)Nc2ccc(F)c(Cl)c2)=C(C)N1 | H37Rv | - | MIC | - | >6.25 µg/mL
CCC(=O)OC1=C(C(C)C)C(=O)C2=C(C1=O)[C@@]1(C)CCCC(C)(C)[C@@H]1[C@H](OC(=O)CC)C2OC(C)=O | H37Rv | MTT | MIC100 | - | 25 µg/mL
COc1ccc(-n2c(C)nc3ccc(Cl)cc3c2=S)cc1 | My 331/88 | - | MIC | - | 31 µg/mL

5 of the rows above, restated:

structure | strain or isolate | read by | measure | dose | result
Cc1ccc(NC(=O)c2cc(-c3cccs3)nc3ccc(C)cc23)cc1 | H37Rv | fluorescence | MIC | - | >6.25 µg/mL
CC(=O)O[C@H]1C2=C(C(=O)C(C(=O)Oc3ccc([N+](=O)[O-])cc3)=C(C(C)C)C2=O)[C@@]2(C)CCCC(C)(C)[C@@H]2[C@@H]1O | MDR | MTT | MIC100 | - | 3.12 µg/mL
CO[C@H]1/C=C/O[C@@]2(C)Oc3c(C)c(O)c4c(O)c(c(/C=N/N5CCCC5)c(O)c4c3C2=O)NC(=O)/C(C)=C\C=C\[C@H](C)[C@H](O)[C@@H](C)[C@@H](O)[C@@H](C)[C@H](OC(C)=O)[C@@H]1C | H37Rv | - | MIC | - | 0.2 µg/mL
CC[C@@H](CO)NCCN[C@@H](CC)CO | ATCC 27294 | resazurin | MIC | - | 14.4 µM
O=C(Nc1nc(-c2ccc(Br)s2)cs1)c1cc(/C=C/c2ccc([N+](=O)[O-])s2)nc2ccccc12 | H37Rv | fluorescence | MIC | - | 6.25 µg/mL

Neighbouring rows are from separate reports. ECn: concentration that inhibits the pathogen or its effect by n%. An empty or dashed field is not shown. A number after MIC or MFC names an inhibition level or a share of isolates. MIC bound: limit read from a one-dose screen.